Tested on: HIV-1
Assay: Inhibition of HIV-1 replication in MT-2 lymphocytes
Conditions: MT-2 CC50 / HIV-1 IC50

4-epi-hyperolactone C [compound 16]
TI, therapeutic index (CC50/IC50): 13.3

24-epi-biyouyanagin A [2a]
TI, therapeutic index (CC50/IC50): 14.4

From paper PMC2614900 (Journal of the American Chemical Society, 2008)
